The values that follow come from publication PMC6110920.

The series deals with T1, His6-ANR (Pseudomonas aeruginosa PAO1) (UniProt P23926).
T1 sequence (looked up): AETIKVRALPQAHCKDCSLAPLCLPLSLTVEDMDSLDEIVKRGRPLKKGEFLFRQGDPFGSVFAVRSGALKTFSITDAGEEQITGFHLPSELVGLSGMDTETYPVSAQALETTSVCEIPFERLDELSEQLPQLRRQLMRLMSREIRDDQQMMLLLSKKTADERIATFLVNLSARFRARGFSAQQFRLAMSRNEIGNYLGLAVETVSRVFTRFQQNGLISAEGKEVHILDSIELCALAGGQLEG
Put plainly: DNase I footprinting. The conditions noted are these: 30 pmol ANR with 0.45 pmol DNA in 50 ul, ANR preincubated with 100 mM DTT and 0.1 mM Fe(II), aerobic; DNase I footprinting: 0.45 pmol DNA, 0-30 pmol ANR in 50 ul, 20 min at room temperature; binding buffer, salt and pH not stated (protein in 50 mM Tris pH 8.0); recombinant protein; residues 2-244; protein details: N-terminal His6; label: 5' 6-FAM on reverse primer strand; probe letters rebuilt from the primers and the genome.

Protein sequences can lack the tags named with them.

For “GCGATGCATCGCCCTCGGCCAGCGCAGGGCGGTCGGCAAGGTGGTGGTGGAGGTTCGCTGAGCCACGAAGGCGGCGAGTATTGCCTCCCGCCCGTGCGGAGAAAGGCATGGCGGGCCGGAGCGATACACCGGCCGAGGCCCACGCTGTCAGATGTTTTTCCCCTATGAAGGCCCCGGTTTCCGACCGGGGCTTTCTTATTTCCGACCAATGCACTCAACCTGTAACATTTCCGCTATTTTTTCATTTACGAAAAATGTAGTGTTCGCAACCGCGTAAAAAGGCGCGACACAACAACAAGCGGAGCTCGCGA (double strand) [glpT upstream region, 301 bp]”, the binding result is “binds”.
